Anti-infective test results gathered from many reports (values: NIAID ChemDB through PubChem).

All rows: whole-cell or culture tests; organism: Human cytomegalovirus; method: plaque count; read-out: EC50

An empty or dashed field is not shown.

SMILES	cell line	strain or isolate	result
O=c1[nH]c(=S)n([C@@H]2O[C@H](CO)[C@@H](O)[C@@H]2O)cc1/C=C/Br	MRC-5	T-137	>213 µM
CC[Si]1(C(C)C)O[C@H]2[C@@H](O)[C@H](c3ccccc3)O[C@@H]2CO[Si](C(C)C)(C(C)C)O1	HEL	DAVID	2 µg/mL
CCc1cn([C@@H]2O[C@H](CO)[C@@H](O)[C@@H]2O)c(=S)[nH]c1=O	MRC-5	T-137	>213 µM
CCCCCCCCCCCCCCCCOCCCOP(=O)(O)CO[C@H](CO)Cn1ccc(N)nc1=O	MRC-5	TOWNE	0.0009 µM
Nc1nc2c(ncn2COC(CO)CO)c(=O)[nH]1	HFF	C8805/37-1-1 (drug-resistant)	100 µM
C=Cc1cn([C@@H]2O[C@H](CO)[C@@H](O)[C@@H]2O)c(=S)[nH]c1=O	MRC-5	T-137	>213 µM
Nc1ccn(C[C@H]2COP(=O)(O)CO2)c(=O)n1	MRC-5	C9209/1-4-4 drug-resistant mutant	1.95 µM
CCCCCCCCCCCCOCCCOP(=O)(O)CO[C@H](CO)Cn1ccc(N)nc1=O	HFF	TOWNE	0.02 µM
CCCCCCCCCCCCCCCCCCOCCOP1(=O)CO[C@@H](Cn2ccc(N)nc2=O)CO1	MRC-5	DAVIS	0.001 µM
O[C@@H]1[C@H](O)[C@H](O)CO[C@H]1n1c(Br)nc2cc(Cl)c(Cl)cc21	MRC-5	XBAF (deletion 591-593)	0.9 µM
CCc1cn([C@H]2C[C@H](O)[C@@H](CO)O2)c(=S)[nH]c1=O	MRC-5	T-137	>277.6 µM
COc1cccc(N2CCN(C3=Nc4c(F)cccc4[C@H](CC(=O)O)N3c3cc(C(F)(F)F)ccc3OC)CC2)c1		AD169	0.0051 µM
O=C(NCc1ccc(Cl)cc1)c1c[nH]c2c(F)cc(CCCO)cc2c1=O		759rD100	0.1 µM
Nc1nc(=S)n([C@@H]2O[C@H](CO)[C@@H](O)[C@@H]2O)cc1CO	MRC-5	AD169	132 µM
O=C(NCc1ccc(Cl)cc1)c1c[nH]c2ccc(C#CCO)cc2c1=O		AD169	0.6 µM
CC(C)Nc1nc2cc(Cl)c(Cl)cc2n1[C@H]1O[C@@H](CO)[C@H](O)[C@@H]1O	HFF	AD169	2.2 µM
NC(=O)c1c(Cl)c(-c2cccnc2)n2c1CCCC2	HEL	LY9990 (ganciclovir-resistant)	0.0003 µM
CCCCCCCCCCCCCCCCOP(=O)(O)CO[C@H](CO)Cn1ccc(N)nc1=O	HFF	Toledo	0.01 µM
Nc1ncnc2c1ncn2C=C1CC1CO		VR4760 (ganciclovir-resistant)	2.4 µM
CCCCCCCC/C=C\CCCCCCCOCCCOP(=O)(O)CO[C@H](CO)Cn1ccc(N)nc1=O	HFF	759rD100	0.01 µM
O=c1[nH]c(=S)n([C@@H]2O[C@H](CO)[C@@H](O)[C@@H]2O)cc1/C=C/c1ccccc1	MRC-5	T-137	>213 µM
O=C(O)P(=O)(O)O	HEL	DER521 (ganciclovir cidofovir-resistant)	77 µM
O=C(NCc1ccc(Cl)cc1)c1c[nH]c2c(F)cccc2c1=O		HAR	9.2 µM
Cc1cn([C@H]2C[C@H](O)[C@@H](CO)O2)c(=S)nc1N	MRC-5	AD169	>277.4 µM
Nc1ccn(C[C@@H](CO)OCP(=O)(O)O)c(=O)n1	HFF	GDGrP53	1.9 µM
CN(C)c1cccc2c(S(=O)(=O)Nc3ccc(NC(=O)C(C)(C)CO)cc3)cccc12		Ganciclovir-resistant	14 µM
OC[C@H]1O[C@@H](c2ccccc2)C[C@@H]1O	HEL	DAVID	>100 µg/mL
O[C@@H]1[C@H](O)[C@H](O)CO[C@H]1n1c(Br)nc2cc(Cl)c(Cl)cc21	HFF	C8708/17-1-1	2 µM
CCCCCCCC/C=C\CCCCCCCCOCCOP(=O)(O)CO[C@H](CO)Cn1ccc(N)nc1=O	HFF	VR4955 (foscarnet-resistant)	0.01 µM
OC[C@H]1O[C@@H](n2c(Cl)nc3cc(Cl)c(Cl)cc32)[C@H](O)[C@@H]1O	HFF	Isolate B11 mutation D344E	16 µM
CCCCOC[C@H]1O[C@@H]2CC(C)(C)C[C@@H]2[C@H]1OCCCC	HEL	DAVID	7.6 µg/mL
Nc1nc2c(ncn2COC(CO)CO)c(=O)[nH]1	HFF	Isolate D10 (D344E mutation)	4.6 µM
OC[C@H]1O[C@@H](n2c(Br)nc3cc(Cl)c(Cl)cc32)[C@H](O)[C@@H]1O	HFF	Coffman	1.1 µM
CCc1cn([C@@H]2O[C@H](CO)[C@@H](O)[C@@H]2O)c(=S)nc1N	MRC-5	AD169	>264.9 µM
Nc1nc2c(ncn2/C=C2/CC2(CO)CO)c(=O)[nH]1	HFF	VR4760 (ganciclovir- foscarnet-resistant)	1.6 µM
CCCCCCCCCCCCCCCCCCOC[C@H](COP(=O)(O)CO[C@H](CO)Cn1ccc(N)nc1=O)OCc1ccccc1	HFF	759rD100	0.2 µM

The last 2 rows once more:

Nc1nc2c(ncn2/C=C2/CC2(CO)CO)c(=O)[nH]1 ; cell line: HFF ; strain or isolate: VR4760 (ganciclovir- foscarnet-resistant) ; result: 1.6 µM
CCCCCCCCCCCCCCCCCCOC[C@H](COP(=O)(O)CO[C@H](CO)Cn1ccc(N)nc1=O)OCc1ccccc1 ; cell line: HFF ; strain or isolate: 759rD100 ; result: 0.2 µM

ECn is the concentration giving n% inhibition of infection, replication or growth. Rows are shuffled and stem from different studies.